Assays:
Format in all cases: in vivo, human
[1] = test system: gut microbiome; assay: Phase I healthy volunteer study: stool microbiome by shotgun metagenomic / 16S sequencing (alpha/beta diversity, taxa); conditions: healthy subjects; for Shannon alpha diversity, average change ± standard deviation over the study time period: p vs placebo in brackets
[2] = test system: primary and secondary bile acids; assay: Phase I healthy volunteer study: stool bile acids by LC-MS; conditions: healthy subjects
[3] = test system: primary and secondary bile acids; assay: Phase 2a trial: fecal bile acids by LC-MS; conditions: CDI patients
[4] = ibezapolstat 300 mg twice daily 10 days
[5] = ibezapolstat 450 mg twice daily 10 days

In the case of `O=c1[nH]c(NCc2ccc(Cl)c(Cl)c2)nc2ncn(CCN3CCOCC3)c12` [Ibezapolstat, 2-((3,4-dichlorobenzyl)amino)-7-(2-morpholinoethyl)-1,7-dihydro-6H-purin-6-one], the “Proportional change (mean ± SE): Actinobacteria (phylum)” value ([1]; Ibezapolstat 300 mg) is reported as 0.31 ± 0.053, the “Proportional change (mean ± SE): Bacteroidetes (phylum)” value ([1]; Ibezapolstat 300 mg) is reported as −0.0055 ± 0.025 and the “Proportional change (mean ± SE): Fusobacteria (phylum)” value ([1]; Ibezapolstat 300 mg) is reported as 0.0011 ± 0.015. The “Proportional change (mean ± SE): c_Actinobacteria” value ([1]; Ibezapolstat 300 mg) was 0.27 ± 0.052, the “Proportional change (mean ± SE): c_Actinobacteria o_Bifidobacteriales” value ([1]; Ibezapolstat 300 mg) was 0.27 ± 0.053 and the “Proportional change (mean ± SE): c_Actinobacteria o_Bifidobacteriales f_Bifidobacteriaceae” value ([1]; Ibezapolstat 300 mg) was 0.27 ± 0.053. The “Proportional change (mean ± SE): c_Bacilli” value ([1]; Ibezapolstat 300 mg) was 0.016 ± 0.044, the “Proportional change (mean ± SE): c_Bacilli o_Lactobacillales” value ([1]; Ibezapolstat 300 mg) was 0.016 ± 0.044 and the “Proportional change (mean ± SE): c_Bacilli o_Lactobacillales f_Lactobacillaceae” value ([1]; Ibezapolstat 300 mg) was 0.024 ± 0.042. The “Proportional change (mean ± SE): c_Coriobacteriia” value ([1]; Ibezapolstat 300 mg) was 0.036 ± 0.016, the “Proportional change (mean ± SE): c_Coriobacteriia o_Coriobacteriales” value ([1]; Ibezapolstat 300 mg) was 0.035 ± 0.016 and the “Proportional change (mean ± SE): c_Coriobacteriia o_Coriobacteriales f_Coriobacteriaceae” value ([1]; Ibezapolstat 300 mg) was 0.034 ± 0.016. For the same compound, the “Proportional change (mean ± SE): c_Gammaproteobacteria” value ([1]; Ibezapolstat 300 mg) was 0.12 ± 0.046, the “Proportional change (mean ± SE): c_Gammaproteobacteria o_Enterobacterales” value ([1]; Ibezapolstat 300 mg) was 0.11 ± 0.043 and the “Proportional change (mean ± SE): c_Gammaproteobacteria o_Enterobacterales f_Enterobacteriaceae” value ([1]; Ibezapolstat 300 mg) was 0.11 ± 0.042. For the same compound, the “Proportional change (mean ± SE): Actinobacteria (phylum)” value ([1]; Ibezapolstat 450 mg) was 0.31 ± 0.054, the “Proportional change (mean ± SE): Bacteroidetes (phylum)” value ([1]; Ibezapolstat 450 mg) was 0.013 ± 0.025 and the “Proportional change (mean ± SE): Fusobacteria (phylum)” value ([1]; Ibezapolstat 450 mg) was 0.00046 ± 0.015. The “Proportional change (mean ± SE): Proteobacteria (phylum)” value ([1]; Ibezapolstat 450 mg) was 0.09 ± 0.05, the “Proportional change (mean ± SE): c_Actinobacteria” value ([1]; Ibezapolstat 450 mg) was 0.29 ± 0.053 and the “Proportional change (mean ± SE): c_Actinobacteria o_Bifidobacteriales” value ([1]; Ibezapolstat 450 mg) was 0.29 ± 0.053. For the same compound, the “Proportional change (mean ± SE): c_Actinobacteria o_Bifidobacteriales f_Bifidobacteriaceae” value ([1]; Ibezapolstat 450 mg) was 0.29 ± 0.053, the “Proportional change (mean ± SE): c_Bacilli” value ([1]; Ibezapolstat 450 mg) was 0.017 ± 0.045 and the “Proportional change (mean ± SE): c_Bacilli o_Lactobacillales” value ([1]; Ibezapolstat 450 mg) was 0.017 ± 0.045. For the same compound, the “Proportional change (mean ± SE): c_Bacilli o_Lactobacillales f_Lactobacillaceae” value ([1]; Ibezapolstat 450 mg) was 0.015 ± 0.043, the “Proportional change (mean ± SE): c_Coriobacteriia” value ([1]; Ibezapolstat 450 mg) was 0.024 ± 0.016 and the “Proportional change (mean ± SE): c_Coriobacteriia o_Coriobacteriales” value ([1]; Ibezapolstat 450 mg) was 0.026 ± 0.016. The “Proportional change (mean ± SE): c_Coriobacteriia o_Coriobacteriales f_Coriobacteriaceae” value ([1]; Ibezapolstat 450 mg) was 0.025 ± 0.016, the “Proportional change (mean ± SE): c_Gammaproteobacteria” value ([1]; Ibezapolstat 450 mg) was 0.092 ± 0.046 and the “Proportional change (mean ± SE): c_Gammaproteobacteria o_Enterobacterales” value ([1]; Ibezapolstat 450 mg) was 0.094 ± 0.044. For the same compound, the “Proportional change (mean ± SE): c_Gammaproteobacteria o_Enterobacterales f_Enterobacteriaceae” value ([1]; Ibezapolstat 450 mg) was 0.087 ± 0.043, the “Pielous alpha diversity, average change ± standard deviation over the study time period” value [1, 4] was −0.0040 ± 0.024 (0.87) and the “Simpson's alpha diversity, average change ± standard deviation over the study time period” value [1, 4] was −0.013 ± 0.023 (0.59). The “Shannon alpha diversity, average change ± standard deviation over the study time period” value [1, 4] was −0.12 ± 0.12 (0.31), the “Pielous alpha diversity, average change ± standard deviation over the study time period” value [1, 5] was −0.051 ± 0.024 (0.031) and the “Simpson's alpha diversity, average change ± standard deviation over the study time period” value [1, 5] was −0.072 ± 0.022 (0.0019). The “Shannon alpha diversity, average change ± standard deviation over the study time period” value [1, 5] was −0.45 ± 0.12 (0.0001), the “1° bile acids, average change ± standard deviation” value [2, 4] was −3.7 ± 172 (0.98) ug/L and the “1°:2° bile acid ratio, average change ± standard deviation” value [2, 4] was −1.3 ± 4.1 (0.75). The “2° bile acids, average change ± standard deviation” value [2, 4] was −913 ± 675 (0.18) ug/L, the “1° bile acids, average change ± standard deviation” value [2, 5] was 307 ± 161 (0.061) ug/L and the “1°:2° bile acid ratio, average change ± standard deviation” value [2, 5] was 6.2 ± 3.8 (0.11). The “2° bile acids, average change ± standard deviation” value [2, 5] was −971 ± 629 (0.13) ug/L, the “Primary bile acids, in words” value [3] was “decrease in primary bile acids” and the “decrease of total primary acids in feces vs baseline” value ([3]; after completion of therapy) was 40.5±14.1 ng/mg stool. The “increase of total secondary bile acids vs baseline” value ([3]; after completion of therapy) was 97.5±215.4 ng/mg stool, the “Secondary bile acids, in words” value ([3]; during and following therapy) was “increased concentration of secondary bile acids” and the “decrease of total primary acids in feces vs baseline” value ([3]; during therapy) was 40.1±9.6 ng/mg stool. For the same compound, the “increase of total secondary bile acids vs baseline” value ([3]; during therapy) was 65.6±146.7 ng/mg stool.

— US12036225B2, “Use of ibezapolstat to promote microbiome health” (Acurx Pharmaceuticals, Inc., priority 2021, dated 2024)
